# Data source: PubChem BioAssay AID1259414 (Drosophila RNAi Screening Center, 2018)
# Purpose: 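Host factors increasing or decreasing Wolbachia levels in cultured fly cells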 (primary screen)
# Cells: Drosophila JW18 cells infected with Wolbachia
# Reagent: long dsRNA against Drosophila genes, 0.25 µg dsRNA per well of a 384-well plate
# Time to read-out: 5 days
# Challenge: cells persistently infected with Wolbachia before knock-down; no added drug
# Read-out: 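Automated imaging of bacterial rRNA staining divided by host cell count, reported as plate-normalised robust z-score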
# Reading the numbers: Wolbachia per cell robust z: higher = more Wolbachia per host cell than the plate typical
# Hit rule: 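Hit when robust z is 1.5 or more, or -1.5 or less, in at least two of three replicates; excludes dsRNAs with several or no targets, genes not expressed in JW18 and well A1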
# The screen tested about 24,000 reagents; this is an unselected part of those with a known target gene and a result. Of all reagents, about 1,210 (5%) are marked active. 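Inactive calls also include excluded dsRNAs with several or no targets, genes unexpressed in JW18, and well A1, regardless of score.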 Reagents against one gene are numbered here.
target gene,dsRNA no.,"Wolbachia per cell robust z, rep 1","Wolbachia per cell robust z, rep 2","Wolbachia per cell robust z, rep 3",Call
LSm1,1,-1.45,-0.0123,-0.696,inactive
Obp19d,1,-0.889,0.549,0.0709,inactive
msn,1,1.91,-0.999,0.671,inactive
msn,2,-0.718,0.148,-0.515,inactive
msn,3,-2.2,-0.562,-1.27,inactive
msn,4,0.469,0.459,1.15,inactive
slbo,1,-1.17,0.349,0.0728,inactive
slbo,2,1.36,1.17,0.958,inactive
CG7094,1,-0.581,-0.452,-0.653,inactive
CG7094,2,-0.00307,-0.936,-0.276,inactive
CG7094,3,0.356,1.13,0.438,inactive
CG2901,1,-0.741,-2.69,-1.88,inactive
IM33,1,2.23,-0.476,0.262,inactive
IM33,2,-1.05,-1.32,-1.21,inactive
Gpdh3,1,-3.75,-5.01,-1.05,active
CG5466,1,-0.757,0.265,0.27,inactive
CG5466,2,-0.487,1.7,0.186,inactive
CG7101,1,-0.498,-0.127,2.57,inactive
CG7101,2,-0.0553,-1.08,-0.218,inactive
TrpRS-m,1,0.42,0.0255,0.862,inactive
Aldh7A1,1,-0.0153,0.676,-0.461,inactive
Dpy-30L1,1,-0.0936,0.527,-0.913,inactive
Dpy-30L1,2,-1.84,-1.36,-2.28,active
CG31546,1,-0.64,-4.78,-0.777,inactive
CG31546,2,0.747,-0.641,-0.447,inactive
hdm,1,0.182,-1.83,0.78,inactive
Klp54D,1,-2.76,-1.44,0.918,inactive
CG18004,1,-0.166,-2.12,-3.4,active
CG18004,2,0.262,1.49,0.406,inactive
CG6329,1,-0.419,1.28,0.67,inactive
CG17283,1,0.673,-4.1,0.362,inactive
Nepl8,1,-0.0356,1.64,-5.8,inactive
bib,1,-1.16,0.926,-2.2,inactive
CG14739,1,-4.16,-0.377,0.273,inactive
CG11262,1,-0.134,-1.14,-0.0682,inactive
Cont,1,-0.178,1.08,-0.361,inactive
CG3634,1,0.904,1.27,0.355,inactive
CG7557,1,0.145,-0.808,0.558,inactive
CG7557,2,-1.43,-0.0505,0.321,inactive
CG2906,1,-1.09,-1.16,-1.9,inactive
eIF1,1,1.1,-2.33,0.498,inactive
eIF1,2,0.496,2.33,0.872,inactive
CG5715,1,0.00385,-1.51,-0.145,inactive
CG5715,2,-1.06,0.507,-1.08,inactive
CG5078,1,-0.477,-1.77,0.194,inactive
CG8910,1,0.172,1.23,-1.23,inactive
CG8910,2,-1.22,-0.917,0.0295,inactive

Just “Wolbachia per cell robust z, rep 3”, for 7 of the entries above:
Obp19d	0.0709
msn #1	0.671
msn #2	-0.515
msn #3	-1.27
msn #4	1.15
slbo #1	0.0728
slbo #2	0.958
